Measured values from several laboratories, pooled; numbers as filed in NIAID ChemDB.

Shared fields: whole-cell or culture tests

Conditions beyond the fields shown may differ between rows.

{"structure": "Cc1cn([C@@H]2O[C@H](CO)[C@@H](O)[C@@H]2O)c(=O)[nH]c1=O", "agent": "Herpes simplex virus", "strain": "WT-20", "read-out": "MIC", "result": "100 µg/mL"}
{"structure": "Cc1c(NC(=O)OC(C)(C)C)ccc2nc(N3CCC[C@H]3C(=O)NCc3cccnc3)oc(=O)c12", "agent": "Herpes simplex virus 1", "cell line": "VERO", "read by": "plaque count", "read-out": "EC90", "result": ">12.5 µM"}
{"structure": "Nc1nc2c(ncn2COC(CO)CO)c(=O)[nH]1", "agent": "Herpes simplex virus 1", "strain": "KOS mutant PFA-R2", "cell line": "WI-38", "read by": "plaque count", "read-out": "inhibition", "dose": "1 µM", "result": "90%"}
{"structure": "O=S(=O)(O)c1ccc(N=Nc2c(O)ccc3cc(S(=O)(=O)O)ccc23)cc1", "agent": "Herpes simplex virus", "cell line": "Human conjunctiva cells", "read by": "cytopathic effect", "read-out": "inhibition", "dose": "50 µg/mL", "result": "0%"}
{"structure": "O=C(O)P(=O)(O)O", "agent": "Herpes simplex virus 2", "strain": "E-326", "cell line": "MEF", "read by": "plaque count", "read-out": "EC50", "result": "26.9 µg/mL"}
{"structure": "CC(=O)OC[C@H]1[C@H](COC(C)=O)[C@@H](COC(C)=O)O[C@H]1n1cnc2c(N)ncnc21", "agent": "Herpes simplex virus 2", "strain": "Clinical isolate HEETER", "cell line": "MEF", "read by": "plaque count", "read-out": "EC50", "result": "172 µM"}
{"structure": "N=c1ncn(Cc2ccc(Cl)cc2Cl)c2nc[nH]c12", "agent": "Herpes simplex virus 1", "cell line": "BSC-1", "read by": "plaque count", "read-out": "inhibition", "dose": "6 µg/mL", "result": "0%"}
{"structure": "Cc1c(NC(=O)CCNC(=O)OC(C)(C)C)ccc2nc(NCC(=O)N(C)CCc3ccccn3)oc(=O)c12", "agent": "Herpes simplex virus 1", "cell line": "VERO", "read by": "plaque count", "read-out": "EC90", "result": ">20 µM"}
{"structure": "Cc1cn([C@@H]2O[C@H](CO)[C@H]2CO)c(=O)[nH]c1=O", "agent": "Herpes simplex virus 2", "strain": "X-79", "cell line": "HFF", "read by": "plaque count", "read-out": "EC50", "result": "1 µg/mL"}
{"structure": "Cc1cc(-c2ccc(N=Nc3c(N)c(S(=O)(=O)O)cc4cc(S(=O)(=O)O)ccc34)c(C)c2)ccc1N=Nc1c(N)ccc2cc(S(=O)(=O)O)ccc12", "agent": "Herpes simplex virus", "cell line": "Human amnion AV3 cells", "read by": "cytopathic effect", "read-out": "inhibition", "dose": "10 µg/mL", "result": "20%"}
{"structure": "Nc1ncnc2c1ncn2[C@@H]1O[C@H](COP(=O)(O)O)[C@@H](O)[C@@H]1O", "agent": "Herpes simplex virus 2", "strain": "Clinical isolate HEETER", "cell line": "MEF", "read by": "plaque count", "read-out": "EC50", "result": "20 µM"}
{"structure": "Cc1c(NC(=O)OC(C)(C)C)ccc2nc(NC3(C(=O)N(C)CCc4ccncc4)CC3)oc(=O)c12", "agent": "Herpes simplex virus 1", "cell line": "VERO", "read by": "plaque count", "read-out": "EC90", "result": ">12.5 µM"}
{"structure": "O=C(NCc1ccc(Cl)cc1)c1cn2c3c(cc(CN4CCOCC4)cc3c1=O)OC(c1cccnc1)C2", "agent": "Herpes simplex virus 2", "strain": "L6191429 ACV resistant", "cell line": "HFF", "read by": "plaque count", "read-out": "EC50", "result": "1.6 µM"}
{"structure": "Nc1nc2c(ncn2COCCO)c(=O)[nH]1", "agent": "Herpes simplex virus 2", "strain": "F51695 (acyclovir-susceptible)", "cell line": "HFF", "read by": "cytopathic effect", "read-out": "EC50", "result": "2.5 µg/mL"}
{"structure": "Cc1cc(-c2ccc(N=Nc3ccc4c(S(=O)(=O)O)cc(S(=O)(=O)O)c(N)c4c3O)c(C)c2)ccc1N=Nc1ccc2c(S(=O)(=O)O)cc(S(=O)(=O)O)c(N)c2c1O", "agent": "Herpes simplex virus", "cell line": "Human conjunctiva cells", "read by": "cytopathic effect", "read-out": "inhibition", "dose": "10 µg/mL", "result": "100%"}
{"structure": "Cc1oc(C(C)(C)C)cc1C(=O)Nc1ccc2nc(NC(C)(C)C(=O)N(C)CCc3ccccn3)oc(=O)c2c1C", "agent": "Herpes simplex virus 1", "cell line": "VERO", "read by": "plaque count", "read-out": "EC90", "result": ">12.5 µM"}
{"structure": "O=S(=O)(O)c1cc(O)c2c(O)cc(S(=O)(=O)O)cc2c1", "agent": "Herpes simplex virus", "cell line": "Human conjunctiva cells", "read by": "cytopathic effect", "read-out": "inhibition", "dose": "50 µg/mL", "result": "100%"}
{"structure": "C/C=C/c1cn([C@H]2C[C@H](O)[C@@H](CO)O2)c(=O)[nH]c1=O", "agent": "Herpes simplex virus 1", "strain": "C42PFA-R", "cell line": "VERO", "read by": "plaque count", "read-out": "inhibition", "dose": "1 µM", "result": "91%"}
{"structure": "Cc1ccc(Cn2cnc(=N)c3[nH]cnc32)cc1", "agent": "Herpes simplex virus 1", "cell line": "BSC-1", "read by": "plaque count", "read-out": "inhibition", "dose": "12 µg/mL", "result": "0%"}
{"structure": "Nc1ccc(S(=O)(=O)[O-])c2c(S(=O)(=O)[O-])ccc(O)c12", "agent": "Herpes simplex virus", "cell line": "Human conjunctiva cells", "read by": "cytopathic effect", "read-out": "inhibition", "dose": "10 µg/mL", "result": "0%"}
{"structure": "Cn1cc(C(=O)NCc2ccc(Cl)cc2)c(=O)c2cc(CN3CCOCC3)ccc21", "agent": "Herpes simplex virus 2", "strain": "L6089158 ACV resistant", "cell line": "HFF", "read by": "plaque count", "read-out": "EC50", "result": "2.8 µM"}
{"structure": "C/C=C/c1cn([C@@H]2O[C@H](CO)[C@@H](O)[C@@H]2O)c(=O)[nH]c1=O", "agent": "Herpes simplex virus 1", "strain": "C42PFA-R", "cell line": "VERO", "read by": "plaque count", "read-out": "inhibition", "dose": "100 µM", "result": "50%"}
{"structure": "Cc1cccc(Cn2cnc(=N)c3[nH]cnc32)c1", "agent": "Herpes simplex virus 1", "cell line": "BSC-1", "read by": "plaque count", "read-out": "inhibition", "dose": "12 µg/mL", "result": "0%"}
{"structure": "Cc1c(NC(=O)CCNC(=O)OC(C)(C)C)ccc2nc(N(C)CC(=O)N(C)CCc3ccccn3)oc(=O)c12", "agent": "Herpes simplex virus 1", "cell line": "VERO", "read by": "plaque count", "read-out": "EC90", "result": ">20 µM"}
{"structure": "O=S(=O)([O-])c1ccc2c(NS(=O)(=O)c3ccccc3)cc(S(=O)(=O)[O-])cc2c1", "agent": "Herpes simplex virus", "cell line": "Human amnion AV3 cells", "read by": "cytopathic effect", "read-out": "inhibition", "dose": "50 µg/mL", "result": "0%"}
{"structure": "O=c1[nH]c(=O)n([C@H]2C[C@H](O)[C@@H](CO)O2)cc1I", "agent": "Herpes simplex virus 1", "strain": "JAH", "read-out": "MIC", "result": "1.1 µg/mL"}
{"structure": "CCCn1cnc(=N)c2[nH]cnc21", "agent": "Herpes simplex virus 1", "cell line": "BSC-1", "read by": "plaque count", "read-out": "inhibition", "dose": "50 µg/mL", "result": "0%"}
{"structure": "O=c1[nH]c(=O)n([C@H]2C[C@H](O)[C@@H](CO)O2)cc1I", "agent": "Herpes simplex virus", "strain": "WT-34", "read-out": "MIC", "result": "3.2 µg/mL"}
{"structure": "O=C(Nc1cc(S(=O)(=O)O)cc2cc(S(=O)(=O)O)cc(O)c12)c1ccccc1", "agent": "Herpes simplex virus", "cell line": "Human conjunctiva cells", "read by": "cytopathic effect", "read-out": "inhibition", "dose": "50 µg/mL", "result": "10%"}
{"structure": "O=c1[nH]c(=O)n([C@H]2C[C@H](O)[C@@H](CO)O2)cc1/C=C/Br", "agent": "Herpes simplex virus 1", "strain": "C42", "cell line": "VERO", "read by": "plaque count", "read-out": "inhibition", "dose": "0.1 µM", "result": ">99%"}
{"structure": "O=C1C(c2[nH]c3ccc(S(=O)(=O)O)cc3c2O)=Nc2ccc(S(=O)(=O)O)cc21", "agent": "Herpes simplex virus", "cell line": "Human conjunctiva cells", "read by": "cytopathic effect", "read-out": "inhibition", "dose": "10 µg/mL", "result": "0%"}
{"structure": "O=c1[nH]c(=O)n([C@@H]2O[C@H](CO)[C@@H](O)[C@@H]2O)cc1/C=C/Br", "agent": "Herpes simplex virus", "strain": "WT-34", "read-out": "MIC", "result": "0.032 µg/mL"}
{"structure": "Cc1ccc(C(=O)Nc2ccc(S(=O)(=O)O)c3cc(S(=O)(=O)O)cc(S(=O)(=O)O)c23)cc1NC(=O)c1cccc(NC(=O)Nc2cccc(C(=O)Nc3cc(C(=O)Nc4ccc(S(=O)(=O)O)c5cc(S(=O)(=O)O)cc(S(=O)(=O)O)c45)ccc3C)c2)c1", "agent": "Herpes simplex virus", "cell line": "Human amnion AV3 cells", "read by": "cytopathic effect", "read-out": "inhibition", "dose": "5 µg/mL", "result": "0%"}
{"structure": "Cc1c(NC(=O)OC(C)(C)C)ccc2nc(N3CCC[C@H]3C(=O)NCCc3ccccn3)oc(=O)c12", "agent": "Herpes simplex virus 1", "cell line": "VERO", "read by": "plaque count", "read-out": "EC90", "result": ">12.5 µM"}

A second listing of 4 rows from above:

{"structure": "O=S(=O)(O)c1ccc(N=Nc2c(O)ccc3cc(S(=O)(=O)O)ccc23)cc1", "agent": "Herpes simplex virus", "cell line": "Human conjunctiva cells", "read by": "cytopathic effect", "read-out": "inhibition", "dose": "50 µg/mL", "result": "0%"}
{"structure": "Cn1cc(C(=O)NCc2ccc(Cl)cc2)c(=O)c2cc(CN3CCOCC3)ccc21", "agent": "Herpes simplex virus 2", "strain": "L6089158 ACV resistant", "cell line": "HFF", "read by": "plaque count", "read-out": "EC50", "result": "2.8 µM"}
{"structure": "O=C(NCc1ccc(Cl)cc1)c1cn2c3c(cc(CN4CCOCC4)cc3c1=O)OC(c1cccnc1)C2", "agent": "Herpes simplex virus 2", "strain": "L6191429 ACV resistant", "cell line": "HFF", "read by": "plaque count", "read-out": "EC50", "result": "1.6 µM"}
{"structure": "O=C(Nc1cc(S(=O)(=O)O)cc2cc(S(=O)(=O)O)cc(O)c12)c1ccccc1", "agent": "Herpes simplex virus", "cell line": "Human conjunctiva cells", "read by": "cytopathic effect", "read-out": "inhibition", "dose": "50 µg/mL", "result": "10%"}

Inhibition is in % at the dose shown (toxicity tests: loss of growth or viability). ECn: concentration that inhibits the pathogen or its effect by n%.